Results on four compounds are retold here after patent publication US20160281125A1, “ANTIMICROBIAL COMPOUND SUSCEPTIBILITY TEST” (priority 2013, published 2016).

Data set [1] deals with lab strains spiked into urine and BAL samples. The data set can be described thus: Lysis test in spiked urine and bronchoalveolar lavage samples vs disk diffusion (Example 11). In kind it is cell-based. The conditions noted are these: simulated urines and BALs, FIGS. 17A and 17B.
The subject of data set [2] is strains harboring plasmid encoded Class C beta-lactamases. The data set can be described thus: Cephalosporin lysis test vs CLSI disk diffusion (Example 12). In kind it is cell-based, Enterobacteriaceae. The settings on record: 500 μg/ml final, one hour, FIG. 20.
Data set [3] relates to strains harboring beta-lactamases together with other mechanisms of resistance. The data set is described as above. The conditions noted are these: 500 μg/ml final, FIG. 22. In kind it is cell-based, Enterobacteriaceae.
Data set [4] has as its system Enterobacteriaceae strains with Class A beta-lactamases. The description is as above. In kind it is cell-based. The conditions noted are these: 500 μg/ml final, one hour, FIG. 18.
The subject of data set [5] is class A beta-lactamase Enterobacteriaceae. The data set is described as follows: Lysis test on simulated blood cultures vs CLSI disk diffusion (Example 6). In kind it is cell-based. The settings on record: class A beta-lactamase strains; 6.67 μg/mL final, 60 minutes; FIG. 12.
Data set [6] deals with class D beta-lactamase Enterobacteriaceae. The data set is described as follows: Lysis test on simulated blood cultures vs CLSI disk diffusion (Example 9). The conditions noted are these: Class D beta-lactamases; 6.67 μg/mL final, 60 minutes; FIG. 15. In kind it is cell-based. On the procedure: In this example, isolates tested include strains with and without carbapenemases. From fresh blood agar plates, three colonies per strain were used to inoculate blood culture media containing human blood and grown overnight at 37° C. with shaking, producing a simulated blood culture. Cultures were then diluted 1:10 into broth medium and grown for an additional hour at 37° C. with shaking. For each strain, four 250 μL aliquots were added into four separate 2 mL Eppendorf microcentrifuge tubes. […] Tubes were vortexed to resuspend the pellet completely, and then OD600 measurement was taken and the percent change, or percent lysis, between the control and antibiotic tubes was calculated (percent change=[control OD−antibiotic OD]/control OD). Results were then compared to the susceptibility of the strains, determined using the Clinical and Laboratory Standards Institute (CLSI) methods for disk diffusion. […]
Of note, if a strain was determined to be intermediate to a drug by the disk diffusion method using CLSI breakpoints, it was expected to correlate to the resistant answer by the method of the invention. […] With this consideration, it is preferable that intermediate strains are conservatively scored as resistant to prevent possible treatment failure. […]

Data set [7] concerns class C beta-lactamase Enterobacteriaceae. The data set is described as follows: Lysis test on simulated blood cultures vs CLSI disk diffusion (Example 8). The settings on record: class C beta-lactamases; 6.67 μg/mL final, 60 minutes; FIG. 14. In kind it is cell-based.
Data set [8] concerns class B beta-lactamase Enterobacteriaceae. The data set can be described thus: Lysis test on simulated blood cultures vs CLSI disk diffusion (Example 7). In kind it is cell-based. The settings on record: Class B beta-lactamases; zinc sulfate added; 6.67 μg/mL final, 60 minutes; FIG. 13.
The mark [9] stands for this setting: cephalosporins, 500 μg/mL final.

With `CO/N=C(\C(=O)N[C@@H]1C(=O)N2C(C(=O)O)=C(COC(C)=O)CS[C@H]12)c1csc(N)n1` [cefotaxime], the “concordance with the disc diffusion method” value in data set [1] (setting [9]) was 93%. Besides, the “agreement with disk diffusion results” value in data set [2] was 67%; in data set [4], 93%. The “agreement between this assay and the disk diffusion test” value in data set [3] is reported as 75%.

As for `CC(C)(O/N=C(\C(=O)N[C@@H]1C(=O)N2C(C(=O)[O-])=C(C[n+]3ccccc3)CS[C@H]12)c1csc(N)n1)C(=O)O` [ceftazidime], the “concordance with the disc diffusion method” value in data set [1] (setting [9]) was 96%. The “agreement with disk diffusion results” value is 83% in data set [2] and 87% in data set [4]. The “agreement between this assay and the disk diffusion test” value in data set [3] came to 75%.

`C[C@@H](O)[C@H]1C(=O)N2C(C(=O)O)=C(S[C@@H]3CN[C@H](C(=O)Nc4cccc(C(=O)O)c4)C3)[C@H](C)[C@H]12` [ertapenem]: the “concordance with the disc diffusion method” value in data set [1] (carbapenems, 6.67 μg/mL final) was 100%. Further, in data set [5], the “concordance between the tested method and the disk diffusion results” value is recorded as 100%. For the same compound, the “concordance with disk diffusion” value was 83% in data set [6], 67% in data set [7] and 57% in data set [8].

For the compound `C[C@@H](O)[C@H]1C(=O)N2C(C(=O)O)=C(S[C@@H]3CN[C@H](C(=O)N(C)C)C3)[C@H](C)[C@H]12` [meropenem], the “concordance with the disc diffusion method” value in data set [1] (carbapenems, 6.67 μg/mL final) is 82%. Moreover, the “concordance between the tested method and the disk diffusion results” value in data set [5] is 93%. Also, the “concordance with disk diffusion” value is listed as 67% in data set [6], 100% in data set [7] and 100% in data set [8].
